This passage reports stoichiometry N results from paper PMC5656576 (2017).

The stoichiometry N is a count of units in the complex or per binding partner.

The assay has as its target UAP56 (cellular splicing factor, DExD-box RNA helicase) (UniProt Q13838). Briefly: SEC; each protein alone on Superose 6 PC 3.2/30 (SMART system); 25 mM HEPES-NaOH pH 7.0, 150 mM NaCl, 1 mM DTT, 5% glycerol. (Size exclusion chromatography separates by hydrodynamic size, large species first.)

“UAP56 (cellular splicing factor, DExD-box RNA helicase) (from UniProt Q13838 1-428) (natural protein; other documents disagree on this pair)”: the stoichiometry N amounted to 2.
